In PubChem BioAssay AID1063 (University of Pittsburgh Molecular Library Screening Center, 2008):
The list shows a part of the results, in another mix than the full data. Activity calls are given as the source filed them. Rule as the data show it: active = inhibition above about 50%; inactive = the rest.

Experiment: antileishmanial activity against promastigotes – primary screen (AID 1063);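 also: promastigotes grown with compound for 44 hours at 28 °C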
Details: Leishmania major promastigotes, resazurin fluorescence viability; at 10 µM; stronger effect = higher value
For `CCOP(C)(=S)SCC(=O)NC(C)C(=O)O` (stereo unspecified), the inhibition was inactive: -2.37%.
